PubChem BioAssay AID1259414 | Drosophila RNAi Screening Center – 2018

- Screen: 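Host factors increasing or decreasing Wolbachia levels in cultured fly cells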 (primary screen)
- Cell system: Drosophila JW18 cells infected with Wolbachia
- Knock-down reagent: long dsRNA against Drosophila genes, 0.25 µg dsRNA per well of a 384-well plate
- Time to read-out: 5 days
- Conditions: cells persistently infected with Wolbachia before knock-down; no added drug
- Read-out: 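Imaged fluorescence in situ signal for Wolbachia 23S rRNA per DAPI-counted host cell, given as a robust z-score within each plate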
- Reading the numbers: Wolbachia per cell robust z: higher = more Wolbachia per host cell than the plate typical
- Rule for the call: 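Active if absolute robust z reaches 1.5 in two or more of three replicates, leaving out multi- or no-target dsRNAs, genes unexpressed in JW18 and A1 wells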
The deposit covers about 24,000 reagents; this is a random part of those that have a named target and a result. In the full data, about 1,210 (5%) were called active. 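Inactive calls also include excluded dsRNAs with several or no targets, genes unexpressed in JW18, and well A1, regardless of score.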 A number with no mark means an inactive call. Names joined by + are all predicted targets of the reagent.

gene	amplicon	Wolbachia per cell robust z, rep 1	Wolbachia per cell robust z, rep 2	Wolbachia per cell robust z, rep 3
Nepl10	DRSC07212	-0.819	-1.89	-0.622
Mct1	DRSC18681	0.0778	-0.149	0.348
Mct1	DRSC29006	-1.98	-0.0505	-1.24
bap	DRSC16908	-1.35	-1.64	-0.00785
bap	DRSC27201	-0.506	0.343	-0.659
18w	DRSC05029	1.48	1.49	-0.0462
18w	DRSC29700	2.1	0.311	-0.691
CG14075	DRSC10080	0.218	-0.815	0.981
Obp57b + Obp57c	DRSC24245	-0.329	1.08	0.0121
Pgant7	DRSC19991	0.0739	-9.5	1.02

4 entries from above, arranged by “Wolbachia per cell robust z, rep 2”, high to low.
gene	amplicon	Wolbachia per cell robust z, rep 1	Wolbachia per cell robust z, rep 2	Wolbachia per cell robust z, rep 3
Mct1	DRSC29006	-1.98	-0.0505	-1.24
Mct1	DRSC18681	0.0778	-0.149	0.348
bap	DRSC16908	-1.35	-1.64	-0.00785
Nepl10	DRSC07212	-0.819	-1.89	-0.622

More records follow:
gene	amplicon	Wolbachia per cell robust z, rep 1	Wolbachia per cell robust z, rep 2	Wolbachia per cell robust z, rep 3
Jon44E	DRSC07216	0.227	0.435	1.04
Jon44E	DRSC25190	0.206	-1.03	-1.5
shps	DRSC14614	-0.25	0.472	-0.88
NK7.1	DRSC25000	0.285	-0.236	0.409
CG11089 + CG31381	DRSC14290	-1.36	-0.709	-1.32
CG11089 + CG31381	DRSC29949	0.385	-1.16	0.677
CG7275	DRSC10796	0.928	0.217	-0.0565
GstZ2	DRSC16479	0.354	0.117	1.26
Nbr	DRSC03166	-0.056	-3.19	0.569
CG33288	DRSC11484	-7.66	0.36	0.874
CG14627	DRSC18630	-2.17	-0.682	0.3
tko	DRSC18844	0.371	-0.303	0.0645
tko	DRSC27125	0.384	0.727	0.843
Tdrd3	DRSC10016	0.336	0.518	0.569
Rac1	DRSC08688	2.7	1.19	1.07
Rac1	DRSC25131	0.126	-0.673	1.07
IntS10	DRSC08173	0.248	0.983	-0.95
Sprn	DRSC10132	0.816	-0.903	-0.761
